These results are taken from PubChem BioAssay AID652126 (The Scripps Research Institute Molecular Screening Center, 2013).

The entries are a selection whose mix differs from that of the whole data set. Active and inactive are the calls of the source.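 Rule for the calls: active = activation above the mean over all tested compounds plus 3 SD (cut at about 0.9% in these data); inactive = the rest.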

The subject of this assay is Nuclear hormone receptor DAF-12 (Strongyloides stercoralis). As to the kind of experiment: ssDAF-12 driven luciferase reporter activation – cell-based, luminescence, HEK293, GRIP1 co-expression, lit1-tk-luc, primary screen (AID 652126).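 Note: 0% = DMSO-only wells and 100% = 3 µM delta7-dafachronic acid wells.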 As to conditions: HEK293 ssDAF-12/GRIP1 lit1-tk-luc reporter, at 6.8 µM, hits give high values, % of 3 µM dafachronic acid response.
For the molecule `O=C(NCC1(N2CCCCC2)CCCCC1)c1ccco1`, the activation is inactive: -0.85%.

Regarding `Cn1c(=O)[nH]cc(N(CCCl)CCCl)c1=O`, the activation was inactive: -1.13%.

Regarding `CN(C)c1ccc(C(=O)NCC2(N3CCCCC3)CCCCC2)cc1`, the activation was inactive: -1.2%.

Regarding `Cc1ccccc1NC1(C#N)CCN(Cc2ccccc2)CC1`, the activation was inactive: -0.79%.

Consider `CC(C)(C)n1nnnc1C(c1ccnc2ccccc12)N1CCC(n2c(=O)[nH]c3ccccc32)CC1` (stereo not given), for which the activation was inactive: -1.24%.

In the case of `CCN1CCC(Nc2cccc(F)c2)CC1`, the activation is inactive: -1.79%.

On to `COc1ccc(C(c2nnnn2C2CCCCC2)N2CCC(n3c(=O)[nH]c4ccccc43)CC2)cc1` (stereo not given), for which the activation is inactive: -1.21%.

Regarding `Cc1ccc(C(=O)NCC2(N3CCCCC3)CCCCC2)o1`, the activation was inactive: -0.82%.

Regarding `Fc1ccccc1NC1CCN(Cc2ccccc2)CC1`, the activation is inactive: -1.76%.

On to `Cc1ccc(NC2(C#N)CCN(Cc3ccccc3)CC2)cc1`, for which the activation was inactive: -0.27%.

For `CC(=O)N(c1ccccc1)C1CCNCC1`, the activation is inactive: -0.86%.

Regarding `COc1cccc(C(c2nnnn2C2CCCCC2)N2CCC(n3c(=O)[nH]c4ccccc43)CC2)c1OC` (stereo not given), the activation is inactive: -2%.

Take `CCC(c1nnnn1C1CCCCC1)N1CCC(n2c(=O)[nH]c3ccccc32)CC1` (stereo not given): the activation was inactive: -1.55%.

Regarding `O=c1[nH]c2ccccc2n1C1CCN(C(c2ccnc3ccccc23)c2nnnn2C2CCCCC2)CC1` (stereo not given), the activation is inactive: -0.81%.

Take `COc1cc(OC)cc(C(=O)NCC2(N3CCCCC3)CCCCC2)c1`: the activation is inactive: -1.06%.

Turning to `CN1CCC(Nc2ccc(Cl)cc2)CC1`, the activation is inactive: -1.4%.

As to `COc1cccc(C(=O)N(c2cc(C)cc(C)c2)C2CCN(C(=O)OC(C)(C)C)CC2)c1`, the activation was inactive: -1%.

Take `COc1cccc(C(c2nnnn2C2CCCC2)N2CCC(n3c(=O)[nH]c4ccccc43)CC2)c1OC` (stereo not given): the activation is inactive: -1.45%.

Regarding `COc1cc(OC)cc(C(=O)NCC2(N3CCOCC3)CCCCC2)c1`, the activation is inactive: -1.34%.

As to `CCC(CO)(C(=O)OC1CN2CCC1CC2)c1ccccc1` (stereo not given), the activation was inactive: -0.11%.

Take `CC(C)(C)OC(=O)N1CCC(Nc2ccccc2)CC1`: the activation is inactive: -1.17%.

Turning to `NN(c1ccccc1)C1CCN(CCc2ccccc2)CC1`, the activation was inactive: -1.17%.

Take `O=C(O)C1(Nc2ccccc2)CCN(Cc2ccccc2)CC1`: the activation is inactive: -0.64%.

On to `CCCOc1ccc(C(=O)NCC2(N(C)C)CCCCC2)cc1`, for which the activation was inactive: -0.17%.

Regarding `O=c1[nH]c2ccccc2n1C1CCN(C(c2cc3ccccc3o2)c2nnnn2C2CCCC2)CC1` (stereo not given), the activation is inactive: -1.76%.

In the case of `CCOc1ncccc1C(=O)NCC1(N2CCOCC2)CCCCC1`, the activation was inactive: -1.43%.

For the molecule `CN1CCC(Nc2ccc(F)c(Cl)c2)CC1`, the activation was inactive: -0.69%.

Turning to `O=C(OC1CN2CCC1CC2)C1c2ccccc2C=Cc2ccccc21` (stereo not given), the activation was inactive: -1.49%.

For `O=c1[nH]c2ccccc2n1C1CCN(C(c2cccs2)c2nnnn2C2CCCC2)CC1` (stereo not given), the activation is inactive: -1.3%.

As for `CCCCn1nnnc1C(c1cccc(OC)c1OC)N1CCC(n2c(=O)[nH]c3ccccc32)CC1` (stereo not given), the activation is inactive: -1.66%.

For `COc1cccc(C(c2nnnn2C(C)(C)C)N2CCC(n3c(=O)[nH]c4ccccc43)CC2)c1OC` (stereo not given), the activation is inactive: -0.64%.

For the molecule `CCOC(=O)N1CCC(Nc2ccc(C)cc2)CC1`, the activation is inactive: -1.62%.

As to `N/C(=N\O)c1c(N)no[n+]1[O-]`, the activation was inactive: -1.05%.

For the molecule `O=c1[nH]c2ccccc2n1C1CCN(C(c2cccs2)c2nnnn2C2CCCCC2)CC1` (stereo not given), the activation was inactive: -1.07%.

With `NC(=O)C1(Nc2ccccc2)CCN(Cc2ccccc2)CC1`, the activation is inactive: -1.07%.

`COc1ccc(C(=O)NCC2(N3CCOCC3)CCCCC2)cc1OC`: the activation is inactive: -1.34%.

As for `O=c1[nH]c2ccccc2n1C1CCN(C(c2ccnc3ccccc23)c2nnnn2C2CCCC2)CC1` (stereo not given), the activation is inactive: -1.07%.

As to `CCCCn1nnnc1C(c1ccccc1)N1CCC(n2c(=O)[nH]c3ccccc32)CC1` (stereo not given), the activation is inactive: -1.5%.

Consider `COc1cc(C(=O)NCC2(N3CCOCC3)CCCCC2)cc(OC)c1C`, for which the activation was inactive: -1.43%.

For the molecule `O=C(NCC1(N2CCOCC2)CCCCC1)c1cc(Br)ccc1Cl`, the activation is inactive: -1.43%.

For `CC(C)(C)n1nnnc1C(c1cccc2ccccc12)N1CCC(n2c(=O)[nH]c3ccccc32)CC1` (stereo not given), the activation was inactive: -1.35%.

`CN(C)C1(CNC(=O)c2cccc(C#N)c2)CCCCC1`: the activation was inactive: -0.6%.

For the molecule `c1ccc(CN2CCC(Nc3ccccc3)CC2)cc1`, the activation was inactive: -1.27%.

Regarding `C/C(N)=N\P(=O)(Oc1ccccc1)Oc1ccccc1`, the activation is inactive: 0.1%.

On to `Cc1cc(N(CCCl)CCCl)ccc1C=O`, for which the activation is inactive: -0.98%.

`CCCN1CCC(Nc2cc(OC)cc(OC)c2)CC1`: the activation was inactive: -0.01%.

As to `O=c1[nH]c2ccccc2n1C1CCN(C(c2ccccc2)c2nnnn2C2CCCC2)CC1` (stereo not given), the activation is inactive: -1.17%.

Take `N#Cc1ccc(C(=O)NCC2(N3CCCCC3)CCCCC2)cc1`: the activation was inactive: -1.17%.

For the molecule `CC(C)(C)OC(=O)N1CCC(N(C(=O)c2ccccc2)c2ccc(Cl)cc2)CC1`, the activation was inactive: -1.19%.

Regarding `O=C(NCC1(N2CCOCC2)CCCCC1)c1cc(=O)[nH]c2ccccc12`, the activation was inactive: -0.72%.

As to `COc1cc(C(=O)NCC2(N3CCCCC3)CCCCC2)ccc1OC(F)F`, the activation is inactive: -0.59%.

As for `CCCCn1nnnc1C(c1cccc2ccccc12)N1CCC(n2c(=O)[nH]c3ccccc32)CC1` (stereo not given), the activation is inactive: -1.35%.

As for `CC(C)c1ccc(C(=O)NCC2(N3CCOCC3)CCCCC2)cc1`, the activation is inactive: -1.02%.

For `COc1ccc(NC2CCN(C(=O)OC(C)(C)C)CC2)cc1`, the activation is inactive: -2.05%.

Turning to `CN1CCN(CCOC(=O)C(O)(c2ccccc2)c2ccccc2)CC1`, the activation is inactive: -1.07%.

As to `O=C(NCC1(N2CCCCC2)CCCCC1)c1cccc(C(F)(F)F)c1`, the activation is inactive: -0.28%.

With `CCN1CCC(Nc2ccc(Cl)cc2)CC1`, the activation is inactive: -1.42%.

On to `N#CC1(Nc2ccccc2)CCN(CCc2ccccc2)CC1`, for which the activation is inactive: -1.34%.

For the molecule `O=c1[nH]c2ccccc2n1C1CCN(C(c2ccccc2OC(F)(F)F)c2nnnn2C2CCCC2)CC1` (stereo not given), the activation was inactive: -0.84%.

`CSc1ccc(C(=O)NCC2(N3CCOCC3)CCCCC2)cc1`: the activation is inactive: -0.78%.
